Experimental findings from PMC7181641, “Aspartate aminotransferase Rv3722c governs aspartate-dependent nitrogen metabolism in Mycobacterium tuberculosis” (Nature Communications, 2020) are described below.

The subject of data set [1] is Nc1ccccc1C(=O)C[C@H](N)C(=O)O. In words: purified protein. Conditions: pH 7.4; 37.0 °C.
The test system of another data set is N[C@@H](CC(=O)O)C(=O)O. In words: purified protein. Conditions: pH 7.4; 37.0 °C.

In general, Km refers to the substrate concentration at which the rate is half of its maximum. Take “Rv3722c (Mycobacterium tuberculosis H37Rv)”: the Km is recorded as 29.4 mM in data set [1] and 2.34 mM in the data set with N[C@@H](CC(=O)O)C(=O)O.
